Experimental data from publication PMC6318274, “Lattice engineering enables definition of molecular features allowing for potent small-molecule inhibition of HIV-1 entry” (Nature Communications, 2019).

Key:
[1] = test system: HIV-1 Env-pseudoviruses (30-strain panel); assay: Neutralization assay, cross-clade 30-strain panel (Env-pseudoviruses, TZM-bl target cells); type: cell-based
[2] = molecular target: BG505 DS-SOSIP.664 Env trimer (Human immunodeficiency virus 1, UniProt Q2N0S5, A430C/A498C/I200C/I556P/T330N/T602C, form not given); type: binding, HIV-1; details: ITC, 37 °C
HIV-1 strain NL4-3 = assay: Entry inhibition of laboratory-adapted HIV-1 strain NL4-3; type: cell-based; details: NL4-3 EC50
[3] = test system: HIV-1 Env-pseudoviruses (208-strain panel); type: cell-based

For `COc1cnc(-c2csc(C(=O)NCCO)n2)c2[nH]cc(C(=O)C(=O)N3CCC(=C(C#N)c4ccccc4)CC3)c12` [BMS-818251], the “Fold improvement (BMS-818251 over BMS-814508)” value (from here on “Fold improvement”) [1] was over 26.7, the “fold higher neutralization potency than BMS-626529” value ([1]; 30-strain panel, geometric mean IC50) was “roughly 20 fold” and the “Fold improvement” value ([1]; 242-14 (Clade AG)) was over 50.0 fold. For the same molecule, the “Fold improvement” value ([1]; 247-23 (Clade D)) was over 53.3 fold, the “Fold improvement” value ([1]; 0330.v4.c3 (Clade A)) was 24.0 fold and the “Fold improvement” value ([1]; 426c (Clade C)) was 90.0 fold. For the same molecule, the “Fold improvement” value ([1]; 7165.18 (Clade B)) was 37.8 fold, the “Fold improvement” value ([1]; B41 (Clade B)) was over 3.3 fold and the “Fold improvement” value ([1]; BJOX028000.10.3 (Clade AE)) was over 5.5 fold. The “Fold improvement” value ([1]; BL01.DG (Clade B)) was 5.3 fold, the “Fold improvement” value ([1]; C4118.09 (Clade AE)) was 22.5 fold and the “Fold improvement” value ([1]; CAP210.E8 (Clade C)) was 18.2 fold. For the same molecule, the “Fold improvement” value ([1]; CH119.10 (Clade BC)) was over 13.3 fold, the “Fold improvement” value ([1]; CNE10 (Clade B)) was over 13.3 fold and the “Fold improvement” value ([1]; CNE20 (Clade BC)) was 23.8 fold. For the same molecule, the “Fold improvement” value ([1]; CNE56 (Clade AE)) was over 8.5 fold, the “Fold improvement” value ([1]; DJ263.8 (Clade AG)) was 1.0 fold and the “Fold improvement” value ([1]; DU156.12 (Clade C)) was over 66.7 fold. For the same molecule, the “Fold improvement” value ([1]; KER2008.12 (Clade A)) was 15.0 fold, the “Fold improvement” value ([1]; MB201.A1 (Clade A)) was 13.7 fold and the “Fold improvement” value ([1]; NKU3006.ec1 (Clade D)) was over 3.3 fold. For the same molecule, the “Fold improvement” value ([1]; P0402.c2.11 (Clade G)) was over 40.0 fold, the “Fold improvement” value ([1]; PVO.04 (Clade B)) was over 6.7 fold and the “Fold improvement” value ([1]; R3265.c6 (Clade AE)) was 33.1 fold. For the same molecule, the “Fold improvement” value ([1]; REJO.67 (Clade B)) was 6.1 fold, the “Fold improvement” value ([1]; T253-11 (Clade AG)) was 1.0 fold and the “Fold improvement” value ([1]; T280-5 (Clade AG)) was over 2.7 fold. The “Fold improvement” value ([1]; ZM106.9 (Clade C)) was 62.0 fold, the “fold more potent than VRC01” value ([1]; per-kDa, per active site basis, geometric mean IC50) was ~ 30 fold and the “fold higher affinity than BMS-626529” value [2] was ~ 9 fold and 8.6 fold and ~ 10 fold. The “fold more potent than BMS-626529” value (HIV-1 strain NL4-3) was ~ 100 fold, the “fold difference of geometric mean IC50 compared to BMS-626529” value ([3]; 208-strain panel) was 10.6 fold and the “fold difference of median IC50 compared to BMS-626529” value ([3]; 208-strain panel) was 18 fold. The “fold more potent than temsavir” value ([3]; cross-clade panel of 208 HIV-1 strains) was over 10 fold.

“And” between values parts separate entries of the source, which are not always exact repeats. Identical values can stand only once. Like-named read-outs stand apart in the source and are kept apart here.
